According to PubChem BioAssay AID720641 (ICCB-Longwood Screening Facility, Harvard Medical School, 2013):
The list shows a part of the results, in another mix than the full data. The source made the active and inactive calls.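 Rule for the calls: active = relative growth at most 50% at the other temperature and 20+ points below 30 °C, or under 10% at both; inactive = the rest, inconclusive results apart.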

assay: Staphylococcus aureus RN4220 growth blockers – two temperatures, LtaS inhibitor project, primary screen (AID 720641); conditions: S. aureus RN4220 growth, OD600, 20 h, 42 °C; active compounds read low

Row | Structure (SMILES) | relative growth
1 | CN(C)P1(=O)Nc2ccccc2S1 (stereo unspecified) | active: 1.43%
